# Laboratory results: patent US20230241178A1 (SUN PHARMACEUTICAL INDUSTRIES LIMITED, priority 2020, published 2023)
# What was measured:
# [1] = general procedure: Fmoc solid-phase peptide synthesis; Wang resin; DIPC/HOBt; conditions: whole synthesis, Method B2
# [2] = general procedure: Fmoc solid-phase peptide synthesis; Fmoc-Rink amide resin; DIPC/HOBt; conditions: whole synthesis
substance,measurement,setting,value
Tyr Aib Glu Gly Thr Phe Thr Ser Asp Tyr Ser Ile Aib Leu Asp Lys Ile Ala Gln Lys Ala Phe Val Gln Trp Leu Ile Ala Gly Gly Pro Ser Ser Gly Ala Pro Pro Pro Ser Arg,final HPLC purity,[1]; run 1,98.22%
same,final HPLC purity,[1]; run 2,97.2%
same,final HPLC purity,[1]; run 3,97.5%
Tyr Aib Glu Gly Thr Phe Thr Ser Asp Tyr Ser Ile D-Ser-(OMe) Leu Asp Lys Ile Ala Gln Lys Ala Phe Val Gln Trp Leu Ile Ala Gly Gly Pro Ser Ser Gly Ala Pro Pro Pro Ser-NH2,final HPLC purity,[2]; Method B2,94.74%
Tyr Aib Glu Gly Thr Phe Thr Ser Asp Tyr Ser Ile Ser(OMe) Leu Glu Lys Ile Ala Ala Gln Glu Phe Val Asn Trp Leu Leu Ala Gly Gly Pro Ser Ser Gly Ala Pro Pro Pro Ser Lys-NH2,final HPLC purity,[2]; Method B4,94%
Tyr Aib Glu Gly Thr Phe Thr Ser Asp Tyr Ser Ile Tyr Leu Glu Lys Ile Ala Ala Gln Glu Phe Val Asn Trp Leu Leu Ala Gly Gly Pro Ser Ser Gly Ala Pro Pro Pro Ser Lys-NH2,final HPLC purity,[2]; Method B5,95.8%
Tyr D-Ser(OMe) Glu Gly Thr Phe Thr Ser Asp Tyr Ser Ile Aib Leu Asp Lys Ile Ala Gln Lys Ala Phe Val Gln Trp Leu Ile Ala Gly Gly Pro Ser Ser Gly Ala Pro Pro Pro Ser-NH2,final HPLC purity,[2]; Method B2,91.96%
Tyr Ser(OMe) Glu Gly Thr Phe Thr Ser Asp Tyr Ser Ile Aib Leu Asp Lys Ile Ala Gln Lys Ala Phe Val Gln Trp Leu Ile Ala Gly Gly Pro Ser Ser Gly Ala Pro Pro Pro Ser-NH2,final HPLC purity,[2]; Method B2,95.52%
